Data as given in PubChem BioAssay AID1259414 (Drosophila RNAi Screening Center, 2018)
In all, the deposit lists about 24,000 reagents; below is an unselected part of those that have a named target and a result. Over the whole deposit, about 1,210 (5%) are marked active. 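Inactive calls also include excluded dsRNAs with several or no targets, genes unexpressed in JW18, and well A1, regardless of score.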 A plus sign joins genes that one reagent is predicted to hit.

Purpose: 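Fly genes that alter Wolbachia amount inside host cells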 (primary screen)
Cells: Drosophila JW18 cells infected with Wolbachia
Reagent: long dsRNA against Drosophila genes, 0.25 µg dsRNA per well of a 384-well plate
Duration: 5 days
Treatment: cells persistently infected with Wolbachia before knock-down; no added drug
Measured: 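Imaged fluorescence in situ signal for Wolbachia 23S rRNA per DAPI-counted host cell, given as a robust z-score within each plate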
Reading the numbers: Wolbachia per cell robust z: higher = more Wolbachia per host cell than the plate typical
Hit rule: 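Active if absolute robust z reaches 1.5 in two or more of three replicates, leaving out multi- or no-target dsRNAs, genes unexpressed in JW18 and A1 wells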

For CG15919 [DRSC06594], what was measured?
Wolbachia per cell robust z, rep 1: 0.494; Wolbachia per cell robust z, rep 2: -1.2; Wolbachia per cell robust z, rep 3: -1.27; Call: inactive

How did the screen score CG3420 [DRSC04995]?
Wolbachia per cell robust z, rep 1: 0.617; Wolbachia per cell robust z, rep 2: 1.21; Wolbachia per cell robust z, rep 3: -0.539; Call: inactive

For Ir52a [DRSC06262], how do the results read?
Wolbachia per cell robust z, rep 1: -2.03; Wolbachia per cell robust z, rep 2: 0.612; Wolbachia per cell robust z, rep 3: 0.14; Call: inactive

For Arp6 [DRSC19326], what was measured?
Wolbachia per cell robust z, rep 1: 0.832; Wolbachia per cell robust z, rep 2: -0.131; Wolbachia per cell robust z, rep 3: 0.973; Call: inactive

For CG1529 [DRSC20515], how do the results read?
Wolbachia per cell robust z, rep 1: 0.797; Wolbachia per cell robust z, rep 2: 0.103; Wolbachia per cell robust z, rep 3: -0.408; Call: inactive

What is on record for CG1529 [DRSC24433]?
Wolbachia per cell robust z, rep 1: 1.64; Wolbachia per cell robust z, rep 2: 1.26; Wolbachia per cell robust z, rep 3: 0.609; Call: inactive

With CG5592 [DRSC10524], how do the results read?
Wolbachia per cell robust z, rep 1: 0.262; Wolbachia per cell robust z, rep 2: 1.06; Wolbachia per cell robust z, rep 3: 0.481; Call: inactive

How did the screen score nsr [DRSC04427]?
Wolbachia per cell robust z, rep 1: -0.85; Wolbachia per cell robust z, rep 2: 0.376; Wolbachia per cell robust z, rep 3: 0.256; Call: inactive

With nsr [DRSC22806], what does the deposit list?
Wolbachia per cell robust z, rep 1: 0.894; Wolbachia per cell robust z, rep 2: 1.77; Wolbachia per cell robust z, rep 3: 0.77; Call: inactive

What did the screen give for CG34116 + Ccdc58 [DRSC10105]?
Wolbachia per cell robust z, rep 1: -0.774; Wolbachia per cell robust z, rep 2: -0.197; Wolbachia per cell robust z, rep 3: 0.261; Call: inactive

What is on record for Bcat [DRSC19756]?
Wolbachia per cell robust z, rep 1: -1.51; Wolbachia per cell robust z, rep 2: -0.117; Wolbachia per cell robust z, rep 3: -3.8; Call: active

For Bcat [DRSC28324], what was measured?
Wolbachia per cell robust z, rep 1: -1.12; Wolbachia per cell robust z, rep 2: -0.573; Wolbachia per cell robust z, rep 3: -0.704; Call: inactive

Which result is listed for Atg1 [DRSC09809]?
Wolbachia per cell robust z, rep 1: -1.11; Wolbachia per cell robust z, rep 2: -0.915; Wolbachia per cell robust z, rep 3: 0.045; Call: inactive

Which result is listed for Atg1 [DRSC09810]?
Wolbachia per cell robust z, rep 1: -0.508; Wolbachia per cell robust z, rep 2: 0.328; Wolbachia per cell robust z, rep 3: -0.651; Call: inactive

What did the screen give for CG17816 [DRSC15277]?
Wolbachia per cell robust z, rep 1: 1.62; Wolbachia per cell robust z, rep 2: -1.95; Wolbachia per cell robust z, rep 3: 1.45; Call: inactive

For CG17816 [DRSC29783], what was measured?
Wolbachia per cell robust z, rep 1: -6.55; Wolbachia per cell robust z, rep 2: -0.517; Wolbachia per cell robust z, rep 3: 0.491; Call: inactive

An excerpt from above, reduced to “Wolbachia per cell robust z, rep 1”:
Bcat [DRSC28324]	-1.12
Atg1 [DRSC09809]	-1.11
